According to PMC5068707 (PLoS Pathogens, 2016):

Target: T1, Ebola virus VP30 C-terminal domain (amino acids 139–288) (Ebola virus (EBOV), UniProt Q05323 139-288)
T1 sequence: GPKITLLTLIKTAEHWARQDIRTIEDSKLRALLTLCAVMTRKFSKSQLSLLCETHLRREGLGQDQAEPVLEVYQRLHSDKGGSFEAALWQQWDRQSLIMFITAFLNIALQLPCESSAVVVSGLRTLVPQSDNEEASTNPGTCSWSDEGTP
Conditions: both partners purified

B1: biotinylated EBOV NP peptide 600–617 (peptide)
chain: RTPTVAPPAPVYRDHSEK
modifications: biotinylated (AviTag, co-expressed E. coli biotin ligase)
Question: Does B1 bind?
Answer: binds
